The entries are a selection whose mix differs from that of the whole data set. Activity calls are given as the source filed them. The calls were made as follows: active = z-score of 3 or more in at least 2 runs; inactive = the rest.

The assay is described as follows: TAR RNA-Tat peptide displacers, HIV-1, primary screen, biochemical, FRET, FAM/TAMRA-labeled Tat (AID 1259389). Also: test concentration not given here. The following applies: HIV-1 TAR RNA, Tat peptide displacement FRET; hits give high values.
For `O=C(COc1ccccc1)OC1CN2CCC1CC2` (stereo unspecified), the z-score is inactive: -3.96.

In the case of `CN(C)CCOC(=O)C(O)(c1ccccc1)c1ccccc1`, the z-score is inactive: 0.91.

Turning to `O=C(O)C1(O)c2ccccc2-c2ccccc21`, the z-score is inactive: 1.11.

On to `O=C(COc1ccc(F)cc1)OC1CN2CCC1CC2` (stereo unspecified), for which the z-score was inactive: -0.58.

With `COc1cc(-n2cnnn2)ccc1-n1cnnn1`, the z-score is inactive: 0.48.

Turning to `BrC1CSc2nc3ccccc3n2C1c1ccccc1` (stereo unspecified), the z-score is inactive: 0.8.

Regarding `CCN(CCCl)Cc1ccccc1C`, the z-score is inactive: 0.36.

Consider `C=CCN1CCN(CCOC(=O)C(O)(c2ccccc2)c2ccccc2)CC1`, for which the z-score is inactive: 1.46.

On to `CN(C)CCOC(=O)C(O)(c1ccccc1)C1CCCC1` (stereo unspecified), for which the z-score is inactive: -0.18.

On to `O=C(CCc1ccccc1)OC1CN2CCC1CC2` (stereo unspecified), for which the z-score is inactive: 1.1.

`OCCSCCO`: the z-score is inactive: 0.59.
